# Data: US20070099199A1
# B1: GST-INADL PDZ domain 8 (protein)
# chain: MSPILGYWKIKGLVQPTRLLLEYLEEKYEEHLYERDEGDKWRNKKFELGLEFPNLPYYIDGDVKLTQSMAIIRYIADKHNMLGGCPKERAEISMLEGAVLDIRYGVSRIAYSKDFETLKVDFLSKLPEMLKMFEDRLCHKTYLNGDHVTHPDFMLYDALDVVLYMDPMCLDAFPKLVCFKKRIEAIPQIDKYLKSSKYIAWPLQGWQATFGGGDHPPKSDLIEGRPATCPIVPGQEMIIEISKGRSGLGLSIVGGKDTPLNAIVIHEVYEEGAAARDGRLWAGDQILEVNGVDLRNSSHEEAITALRQTPQKVRLVVY
# B2: GST-EZRIN Binding Protein 50 PDZ domain 1, clone #167.2 (protein)
# chain: MSPILGYWKIKGLVQPTRLLLEYLEEKYEEHLYERDEGDKWRNKKFELGLEFPNLPYYIDGDVKLTQSMAIIRYIADKHNMLGGCPKERAEISMLEGAVLDIRYGVSRIAYSKDFETLKVDFLSKLPEMLKMFEDRLCHKTYLNGDHVTHPDFMLYDALDVVLYMDPMCLDAFPKLVCFKKRIEAIPQIDKYLKSSKYIAWPLQGWQATFGGGDHPPKSDLIEGRILCCLEKGPNGYGFHLHGEKGKLGQYIRLVEPGSPAEKAGLLAGDRLVEVNGENVEKETHQQVVSRIRAALNAVRLLVVDPEFIVTD
# B3: GST-KIAA0973 PDZ domain 1, clone #148.5 (protein)
# chain: MSPILGYWKIKGLVQPTRLLLEYLEEKYEEHLYERDEGDKWRNKKFELGLEFPNLPYYIDGDVKLTQSMAIIRYIADKHNMLGGCPKERAEISMLEGAVLDIRYGVSRIAYSKDFETLKVDFLSKLPEMLKMFEDRLCHKTYLNGDHVTHPDFMLYDALDVVLYMDPMCLDAFPKLVCFKKRIEAIPQIDKYLKSSKYIAWPLQGWQATFGGGDHPPKSDLIEGRGLRSPITIQRSGKKYGFTLRAIRVYMGDTDVYSVHHIVWHVEEGGPAQEAGLCAGDLITHVNGEPVHGMVHPEVVELILKSGNKVAVTTTPFE
# B4: GST-KIAA0380 PDZ domain 1, clone #25.6 (protein)
# chain: MSPILGYWKIKGLVQPTRLLLEYLEEKYEEHLYERDEGDKWRNKKFELGLEFPNLPYYIDGDVKLTQSMAIIRYIADKHNMLGGCPKERAEISMLEGAVLDIRYGVSRIAYSKDFETLKVDFLSKLPEMLKMFEDRLCHKTYLNGDHVTHPDFMLYDALDVVLYMDPMCLDAFPKLVCFKKRIEAIPQIDKYLKSSKYIAWPLQGWQATFGGGDHPPKSDLIEGRQRCVIIQKDQHGFGFTVSGDRIVLVQSVRPGGAAMKAGVKEGDRIIKVNGTMVTNSSHLEVVKLIKSGAYVALTLLGSS
# B5: GST-KIAA0147 PDZ domain 2 (protein)
# chain: MSPILGYWKIKGLVQPTRLLLEYLEEKYEEHLYERDEGDKWRNKKFELGLEFPNLPYYIDGDVKLTQSMAIIRYIADKHNMLGGCPKERAEISMLEGAVLDIRYGVSRIAYSKDFETLKVDFLSKLPEMLKMFEDRLCHKTYLNGDHVTHPDFMLYDALDVVLYMDPMCLDAFPKLVCFKKRIEAIPQIDKYLKSSKYIAWPLQGWQATFGGGDHPPKSDLIEGRPLRQRHVACLARSERGLGFSIAGGKGSTPYRAGDAGIFVSRIAEGGAAHRAGTLQVGDRVLSINGVDVTEARHDHAVSLLTAASPTIALLLEREAGG
# B6: GST-Shroom PDZ domain 1 (protein)
# chain: MSPILGYWKIKGLVQPTRLLLEYLEEKYEEHLYERDEGDKWRNKKFELGLEFPNLPYYIDGDVKLTQSMAIIRYIADKHNMLGGCPKERAEISMLEGAVLDIRYGVSRIAYSKDFETLKVDFLSKLPEMLKMFEDRLCHKTYLNGDHVTHPDFMLYDALDVVLYMDPMCLDAFPKLVCFKKRIEAIPQIDKYLKSSKYIAWPLQGWQATFGGGDHPPKSDLIEGRIYLEAFLEGGAPWGFTLKGGLEHGEPLIISKVEEGGKADTLSSKLQAGDEVVHINEVTLSSSRKEAVSLVKGSYKTLRLVVRRDVCTDPGH
# Target: HPV16 E6 C-terminal PDZ ligand (PL) peptide, biotinylated (human papillomavirus type 16)
# Assay: G assay ELISA; immobilised GST-PDZ, biotin-peptide 10 uM
Binder,Ave OD,OD S/N (ratio vs GST only)
B1,0.388 A450 nm,1.58
B2,0.381 A450 nm and 0.355 A450 nm,1.94 and 2.28
B3,0.378 A450 nm,1.68
B4,0.376 A450 nm,1.95
B5,0.374 A450 nm,2.46
B6,0.361 A450 nm,3.25

# Values joined by “and” are separate entries in the source; they are usually repeats but may differ in a detail not shown here. Equal entries are not always repeated.
